Compound potency records, mixed from different reports. Data source: NIAID ChemDB in PubChem.

All rows: whole-cell or culture tests; organism: HIV-1; measure: fold resistance

Fold resistance: result on the changed form divided by that on wild type.

CCC(C)OC(=S)Nc1ccc(Cl)c(C(=O)OC(C)(C)C)c1 ; cells: CEM ; method: syncytia ; changes: RT-Y181C ; result: 16.7
CCOCn1c(Sc2cc(C)cc(C)c2)c(CC)c(=O)[nH]c1=S ; cells: CEM ; strain or isolate: IIIB ; method: syncytia ; changes: Nevirapine resistant (RT Y181C) ; result: 23.3
N#Cc1cc(Cl)cc(Oc2c(Br)ccc(CC(=O)Nc3ccc(S(N)(=O)=O)cc3Cl)c2F)c1 ; cells: MT-4 ; changes: L100I V106I Y181C Y188L ; result: >308
CCN1c2ncc(CCOc3ccc(CC(=O)O)c4ccccc34)cc2C(=O)N(C)c2ccc(Cl)nc21 ; cells: C8166 ; method: p24 ; changes: RT-K103N Y181C ; result: 1
CCOCn1c(Sc2ccccc2)c(CC)c(=O)[nH]c1=O ; cells: CEM ; strain or isolate: IIIB TIBO R82913-resistant (RT K103N) ; method: syncytia ; changes: RT-K103N ; result: 257
CC(C)OC(=S)Nc1ccc(Cl)c(C(=O)OCC[Si](C)(C)C)c1 ; cells: CEM ; method: syncytia ; changes: RT-V106A ; result: 27.5
CC=CCOc1cc(NC(=S)c2ccoc2C)ccc1OC ; cells: CEM + CEM-SS ; strain or isolate: NL4-3 ; method: cytopathic effect / XTT ; changes: RT-V179D ; result: 20
CC(C)OC(=S)Nc1ccc(Cl)c(C(=O)OCC2CC2)c1 ; cells: CEM ; method: syncytia ; changes: RT-V106A ; result: 67.5
Cc1cc(S(N)(=O)=O)ccc1NC(=O)COc1ccc(Cl)cc1C(=O)c1cc(F)cc(F)c1 ; cells: HeLa + HELA CD4+ ; strain or isolate: HXB2 ; method: β-galactosidase ; changes: RT-K103N ; result: ~1
CC1=C(C(=O)Nc2ccc(Cl)c(C(=O)OC(C)C)c2)SCCO1 ; cells: CEM ; strain or isolate: IIIB ; method: syncytia ; changes: RT-V106A ; result: >1450
C=CCOC(=S)Nc1ccc(Cl)c(C(=O)OC(C)C)c1 ; cells: CEM ; method: syncytia ; changes: RT-V106A ; result: 109
CC(C)[C@H](NC(=O)OCc1ccccn1)C(=O)N[C@@H](Cc1ccccc1)[C@@H](O)C[C@H](Cc1ccccc1)NC(=O)OCc1cccnc1 ; cells: MT-4 ; strain or isolate: NL4-3 ; method: p24 ; changes: PR-M46I ; result: 1
CCN1c2ncc(CCOc3ccc4cc(CC(=O)O)ccc4c3C)cc2C(=O)N(C)c2cccnc21 ; cells: C8166 ; method: p24 ; changes: RT-V106A ; result: 1–10
CC(C)=CCOc1cc(NC(=S)c2ccsc2C)ccc1Cl ; cells: CEM + CEM-SS ; strain or isolate: TIBO R82150-resistant (RT A98G V108I) ; method: cytopathic effect / XTT ; changes: RT-A98G V108I ; result: 25
CO/N=C(\C)COc1cc(NC(=S)OC(C)C)ccc1Cl ; cells: CEM ; method: syncytia ; changes: RT-E138K ; result: 7.13
CC(C)=CCOc1cc(NC(=S)c2ccoc2C)ccc1Cl ; cells: CEM + CEM-SS ; strain or isolate: NL4-3 ; method: p24 ; changes: RT-K101E ; result: 7
CC(C)=CCOc1cc(NC(=S)c2ccoc2C)ccc1Cl ; cells: CEM ; strain or isolate: IIIB ; method: syncytia ; changes: RT-Y181C ; result: 36.6
CCOCn1c(Sc2ccccc2)c(CC)c(=O)[nH]c1=S ; cells: CEM ; strain or isolate: IIIB ; method: syncytia ; changes: RT-E138K ; result: 11.8
CC1=C(C(=O)Nc2ccc(Cl)c(C(=O)OC(C)C)c2)SCCO1 ; cells: CEM ; strain or isolate: IIIB ; changes: RT-K101E ; result: 2.8
Cc1occc1C(=S)Nc1ccc(Cl)c(/C=N/OC(C)(C)C)c1 ; cells: CEM + CEM-SS ; strain or isolate: NL4-3 ; method: cytopathic effect / XTT ; changes: RT-A98G ; result: 8.75
CCN1c2ncc(CCOc3ccc(CC(C)C(=O)O)c4ccccc34)cc2C(=O)N(C)c2ccc(C)nc21 ; cells: C8166 ; method: p24 ; changes: RT-K103N Y181C ; result: 1
CC(C)OC(=S)Nc1ccc(Cl)c(C(=O)OCc2ccccc2)c1 ; cells: CEM ; method: syncytia ; changes: RT-V106A ; result: 24.3
CCN1c2ncc(CCOc3ccc(CC(=O)O)c4c3CCCC4)cc2C(=O)N(C)c2ccc(F)nc21 ; cells: C8166 ; method: p24 ; changes: RT-K103N Y181C ; result: 1
Cc1ccc(C2CC2)c(-c2ccc3c(c2C)CCCO3)c1[C@H](OC(C)(C)C)C(=O)O ; cells: MT-4 ; strain or isolate: NL4-3 ; method: p24 / luminescence ; changes: N222K ; result: 3
Cc1occc1C(=S)Nc1ccc(Cl)c(COC(C)(C)C)c1 ; cells: CEM + CEM-SS ; strain or isolate: CALO(RT-T139I) ; method: cytopathic effect / XTT ; changes: RT-T139I ; result: 2.86
Cc1cc(C#N)cc(C(=O)c2cc(Cl)ccc2OCC(=O)Nc2ccc(OCCCN3CC=CC3)cc2C)c1 ; cells: HeLa + HELA CD4+ ; strain or isolate: HXB2 ; method: β-galactosidase ; changes: RT-V106I Y181C ; result: ~10
CC(C)OC(=S)Nc1ccc(Cl)c(C(=O)O)c1 ; cells: CEM ; method: syncytia ; changes: RT-L100I ; result: >1
CC(C)=CCOc1cc(NC(=S)c2ccoc2C)ccc1Cl ; cells: CEM + CEM-SS ; strain or isolate: UC040-R (RT-Y181C) ; method: cytopathic effect / XTT ; changes: RT-Y181C ; result: 111
CCC(CC)COC(=O)c1cc(NC(=S)OC(C)C)ccc1Cl ; cells: CEM ; method: syncytia ; changes: RT-Y181C ; result: 83.2
CCC(=O)c1ccc(F)c([C@@H]2C[C@@H]2NC(=O)Nc2ccc(C#N)cn2)c1O ; cells: TZM-bl ; strain or isolate: LAI ; method: β-galactosidase / luminescence ; changes: NNRTI-resistant (RT V106I) ; result: 1.2
CCOC(=O)C(C)Oc1cc(NC(=S)OC(C)C)ccc1Cl ; cells: CEM ; method: syncytia ; changes: RT-V106A ; result: 2.31
Cc1occc1C(=S)Nc1ccc(Cl)c(C(=O)OC(C)C)c1 ; cells: CEM + CEM-SS ; strain or isolate: NL4-3 ; method: cytopathic effect / XTT ; changes: RT-K101E ; result: 23.3
CC(C)OC(=O)c1cc(NC(=S)N(C)C(C)C)ccc1Cl ; cells: CEM ; method: syncytia ; changes: RT-V106A ; result: >1
CCN1c2ncc(CCOc3ccc(C(=O)O)c4c3CCN(C(=O)OC)C4)cc2C(=O)N(C)c2cccnc21 ; cells: C8166 ; method: p24 ; changes: RT-K103N Y181C ; result: 1
O=C1Nc2ccc(Cl)cc2[C@@](C#CC2CC2)(C(F)(F)F)N1 ; changes: RT-P225H ; result: <6.32
Cc1occc1C(=S)Nc1ccc(Cl)c(C(=O)OCC2CC2)c1 ; cells: CEM + CEM-SS ; strain or isolate: NL4-3 ; method: cytopathic effect / XTT ; changes: RT-L74V ; result: 1
C[C@@H]1CCO[C@H]2Cn3cc(C(=O)NCc4ccc(F)cc4F)c(=O)c(O)c3C(=O)N12 ; cells: CBMC ; strain or isolate: NL4-3 ; method: RT activity ; changes: H51Y/R263K ; result: 2
Cc1cc2[nH]cnc2cc1NC(=O)COc1ccc(Cl)cc1C(=O)c1cc(F)cc(C(F)(F)F)c1 ; cells: HeLa + HELA CD4+ ; strain or isolate: HXB2 ; method: β-galactosidase ; changes: RT-K103N P225H ; result: ~1
CC(C)OC(=S)Nc1ccc(Cl)c(C(=O)OC(C(C)C)C(C)C)c1 ; cells: CEM ; method: syncytia ; changes: RT-L100I ; result: >14.3
CC(=O)COc1cc(NC(=S)OC(C)C)ccc1Cl ; cells: CEM + CEM-SS ; strain or isolate: CALO(RT-T139I) ; method: cytopathic effect / XTT ; changes: RT-T139I ; result: 3
Cc1ccccc1OC(=O)c1cc(NC(=S)OC(C)C)ccc1Cl ; cells: CEM ; method: syncytia ; changes: RT-E138K ; result: 18.8
CCOCn1c(Sc2ccccc2)c(C(C)C)c(=O)[nH]c1=O ; cells: CEM ; strain or isolate: IIIB TIBO R82913-resistant (RT K103N) ; method: syncytia ; changes: RT-K103N ; result: 200
CC(C)OC(=O)c1cc(NC(=S)OC(C)C)ccc1Cl ; cells: CEM ; method: syncytia ; changes: RT-Y181C ; result: 67.9
Cc1ccc(C2CC2)c(-c2ccc3c(c2)CCCO3)c1[C@H](OC(C)(C)C)C(=O)O ; cells: MT-4 ; strain or isolate: NL4-3 ; method: luminescence ; changes: INSTI-resistant (IN-G140S) ; result: 1
COC(=O)c1cc(NC(=S)OC(C)C)ccc1Cl ; cells: CEM ; method: syncytia ; changes: RT-V106A ; result: ≥20
O=C1Nc2ccc(F)c(F)c2[C@@](/C=C/C2CC2)(C(F)(F)F)N1 ; changes: RT-K103N V108I ; result: 116
Cc1cc(C#N)cc(C(=O)c2cc(Cl)ccc2OCC(=O)Nc2cnc(S(N)(=O)=O)cc2C)c1 ; cells: HeLa + HELA CD4+ ; strain or isolate: HXB2 ; method: β-galactosidase ; changes: RT-V106I Y181C ; result: ~10
CSC(=Nc1ccc(Cl)c(C(=O)OC(C)C)c1)OC(C)C ; cells: CEM ; method: syncytia ; changes: RT-L100I ; result: >1

A second listing of 6 rows from above:

structure	cells	strain or isolate	method	changes	result
CC(C)OC(=S)Nc1ccc(Cl)c(C(=O)OCC[Si](C)(C)C)c1	CEM	-	syncytia	RT-V106A	27.5
CCN1c2ncc(CCOc3ccc4cc(CC(=O)O)ccc4c3C)cc2C(=O)N(C)c2cccnc21	C8166	-	p24	RT-V106A	1–10
COC(=O)c1cc(NC(=S)OC(C)C)ccc1Cl	CEM	-	syncytia	RT-V106A	≥20
CC(C)OC(=S)Nc1ccc(Cl)c(C(=O)OCc2ccccc2)c1	CEM	-	syncytia	RT-V106A	24.3
CCN1c2ncc(CCOc3ccc(CC(=O)O)c4c3CCCC4)cc2C(=O)N(C)c2ccc(F)nc21	C8166	-	p24	RT-K103N Y181C	1
CCN1c2ncc(CCOc3ccc(CC(=O)O)c4ccccc34)cc2C(=O)N(C)c2ccc(Cl)nc21	C8166	-	p24	RT-K103N Y181C	1

Two numbers with a dash give a range or band. Rows are shuffled and stem from different studies. An empty or dashed field is not shown.